Record: PubChem BioAssay AID504811 (Drosophila RNAi Screening Center, 2011)

Aim: 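Fly genes affecting Listeria uptake, escape from the vacuole or multiplication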 (primary screen)
Cell system: Drosophila SL2 cells
Knock-down reagent: long dsRNA against Drosophila genes
Challenge: infection with GFP-expressing Listeria monocytogenes; dose and duration not given
Measurement: 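Microscopy of GFP-labelled Listeria in infected cells, with each well visually classed as down, up or spots relative to controls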
Rule for the call: 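Hit when the GFP pattern of infection differs visibly from controls, classed as down, up or spots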
Calls: active = hit; inactive = not a hit
Only reagents picked out of a larger screen are listed. 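Only hits are listed, without non-hit dsRNAs or numeric scores; replicate 2 has entries for just two rows.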 Entries without a mark were called inactive. Reagents against one gene are numbered here. A plus sign joins genes that one reagent is predicted to hit. Not stated in the record: the amount of reagent, the time to read-out.

Sf3a1: infection phenotype, replicate 1 = less bacterial GFP than control wells (fewer infected cells or weaker signal per cell) (active)
RpS29 + snoRNA:Psi18S-1275: infection phenotype, replicate 1 = stronger bacterial GFP per infected cell than controls (active)
Spt6: infection phenotype, replicate 1 = less bacterial GFP than control wells (fewer infected cells or weaker signal per cell) (active)
Rpn11: infection phenotype, replicate 1 = less bacterial GFP than control wells (fewer infected cells or weaker signal per cell) (active)
betaCOP: infection phenotype, replicate 1 = less bacterial GFP than control wells (fewer infected cells or weaker signal per cell) (active)
Dp: infection phenotype, replicate 1 = stronger bacterial GFP per infected cell than controls (active)
Prosbeta2: infection phenotype, replicate 1 = less bacterial GFP than control wells (fewer infected cells or weaker signal per cell) (active)
Arf4: infection phenotype, replicate 1 = less bacterial GFP than control wells (fewer infected cells or weaker signal per cell) (active)
Trf2: infection phenotype, replicate 1 = less bacterial GFP than control wells (fewer infected cells or weaker signal per cell) (active)
Rpn1: infection phenotype, replicate 1 = less bacterial GFP than control wells (fewer infected cells or weaker signal per cell) (active)
14-3-3epsilon: infection phenotype, replicate 1 = less bacterial GFP than control wells (fewer infected cells or weaker signal per cell) (active)
RpS30: infection phenotype, replicate 1 = stronger bacterial GFP per infected cell than controls (active)
Hsp70Bb + Hsp70Ba + Hsp70Bc + 1 more #1: infection phenotype, replicate 1 = bacterial GFP seen as punctate clusters; pointing to bacteria failing to leave the vacuole (active)
Hsp70Bb + Hsp70Ba + Hsp70Bc + 1 more #2: infection phenotype, replicate 1 = bacterial GFP seen as punctate clusters; pointing to bacteria failing to leave the vacuole (active)
VhaSFD: infection phenotype, replicate 1 = less bacterial GFP than control wells (fewer infected cells or weaker signal per cell) (active)
lncRNA:sphinx + ATPsynF: infection phenotype, replicate 1 = stronger bacterial GFP per infected cell than controls (active)
TER94: infection phenotype, replicate 1 = less bacterial GFP than control wells (fewer infected cells or weaker signal per cell) (active)
fne: infection phenotype, replicate 1 = less bacterial GFP than control wells (fewer infected cells or weaker signal per cell) (active)
Mi-2: infection phenotype, replicate 1 = less bacterial GFP than control wells (fewer infected cells or weaker signal per cell) (active)
fzy: infection phenotype, replicate 1 = stronger bacterial GFP per infected cell than controls (active)
Hsp70Aa + Hsp70Ab: infection phenotype, replicate 1 = bacterial GFP seen as punctate clusters; pointing to bacteria failing to leave the vacuole (active)
vih: infection phenotype, replicate 1 = less bacterial GFP than control wells (fewer infected cells or weaker signal per cell) (active)
Nup153: infection phenotype, replicate 1 = stronger bacterial GFP per infected cell than controls (active); infection phenotype, replicate 2 = stronger bacterial GFP per infected cell than controls
Trpml + CG42638: infection phenotype, replicate 1 = less bacterial GFP than control wells (fewer infected cells or weaker signal per cell) (active)
Dim1: infection phenotype, replicate 1 = less bacterial GFP than control wells (fewer infected cells or weaker signal per cell) (active)
Rpt5: infection phenotype, replicate 1 = less bacterial GFP than control wells (fewer infected cells or weaker signal per cell) (active)
mTor: infection phenotype, replicate 1 = less bacterial GFP than control wells (fewer infected cells or weaker signal per cell) (active)
Arf1: infection phenotype, replicate 1 = less bacterial GFP than control wells (fewer infected cells or weaker signal per cell) (active)
comt: infection phenotype, replicate 1 = less bacterial GFP than control wells (fewer infected cells or weaker signal per cell) (active)
CG9616: infection phenotype, replicate 1 = less bacterial GFP than control wells (fewer infected cells or weaker signal per cell) (active)
Prosbeta1: infection phenotype, replicate 1 = less bacterial GFP than control wells (fewer infected cells or weaker signal per cell) (active)
CG1161: infection phenotype, replicate 1 = stronger bacterial GFP per infected cell than controls (active)
Tango4: infection phenotype, replicate 1 = less bacterial GFP than control wells (fewer infected cells or weaker signal per cell) (active)
Syx5: infection phenotype, replicate 1 = less bacterial GFP than control wells (fewer infected cells or weaker signal per cell) (active)

Look-ups from the entries so far:
Value of Dim1 under “infection phenotype, replicate 1”: less bacterial GFP than control wells (fewer infected cells or weaker signal per cell) (active)
Under “infection phenotype, replicate 1”, CG1161 is entered as stronger bacterial GFP per infected cell than controls (active)
Under “infection phenotype, replicate 1”, fzy shows stronger bacterial GFP per infected cell than controls (active)
Value of Arf1 in “infection phenotype, replicate 1”: less bacterial GFP than control wells (fewer infected cells or weaker signal per cell) (active)
For “infection phenotype, replicate 1”, RpS29 + snoRNA:Psi18S-1275 has stronger bacterial GFP per infected cell than controls (active)
Entry for Hsp70Aa + Hsp70Ab in “infection phenotype, replicate 1”: bacterial GFP seen as punctate clusters; pointing to bacteria failing to leave the vacuole (active)

Continued.
RhoGAP92B: infection phenotype, replicate 1 = less bacterial GFP than control wells (fewer infected cells or weaker signal per cell) (active)
Rca1: infection phenotype, replicate 1 = stronger bacterial GFP per infected cell than controls (active)
Bx42: infection phenotype, replicate 1 = less bacterial GFP than control wells (fewer infected cells or weaker signal per cell) (active)
Syx1A: infection phenotype, replicate 1 = less bacterial GFP than control wells (fewer infected cells or weaker signal per cell) (active)
shrb: infection phenotype, replicate 1 = less bacterial GFP than control wells (fewer infected cells or weaker signal per cell) (active)
RpL38: infection phenotype, replicate 1 = stronger bacterial GFP per infected cell than controls (active)
His-Psi:CR31616 + His-Psi:CR31615: infection phenotype, replicate 1 = stronger bacterial GFP per infected cell than controls (active)
CG11583: infection phenotype, replicate 1 = stronger bacterial GFP per infected cell than controls (active)
SREBP: infection phenotype, replicate 1 = less bacterial GFP than control wells (fewer infected cells or weaker signal per cell) (active)
CG13258: infection phenotype, replicate 1 = less bacterial GFP than control wells (fewer infected cells or weaker signal per cell) (active)
Trs23: infection phenotype, replicate 1 = less bacterial GFP than control wells (fewer infected cells or weaker signal per cell) (active)
gas: infection phenotype, replicate 1 = less bacterial GFP than control wells (fewer infected cells or weaker signal per cell) (active)
Sar1: infection phenotype, replicate 1 = less bacterial GFP than control wells (fewer infected cells or weaker signal per cell) (active)
hoip: infection phenotype, replicate 1 = stronger bacterial GFP per infected cell than controls (active)
ZC3H3: infection phenotype, replicate 1 = stronger bacterial GFP per infected cell than controls (active)
Prosbeta7: infection phenotype, replicate 1 = less bacterial GFP than control wells (fewer infected cells or weaker signal per cell) (active)
CycA #1: infection phenotype, replicate 1 = stronger bacterial GFP per infected cell than controls (active)
CycA #2: infection phenotype, replicate 1 = stronger bacterial GFP per infected cell than controls (active)
sbr #1: infection phenotype, replicate 1 = stronger bacterial GFP per infected cell than controls (active)
sbr #2: infection phenotype, replicate 1 = stronger bacterial GFP per infected cell than controls (active)
Cdc42: infection phenotype, replicate 1 = less bacterial GFP than control wells (fewer infected cells or weaker signal per cell) (active)
RpS17: infection phenotype, replicate 1 = stronger bacterial GFP per infected cell than controls (active)
Vha68-2: infection phenotype, replicate 1 = less bacterial GFP than control wells (fewer infected cells or weaker signal per cell) (active)
Rab1: infection phenotype, replicate 1 = less bacterial GFP than control wells (fewer infected cells or weaker signal per cell) (active)
RpL37-1: infection phenotype, replicate 1 = stronger bacterial GFP per infected cell than controls (active)
RpLP2: infection phenotype, replicate 1 = stronger bacterial GFP per infected cell than controls (active)
